Measurements published in US10716769B2 (GUANGZHOU JTREAT BIOSCI. LTD., priority 2015, dated 2020).

Experiments:
HSV-I, VR733 strain = experiment: Inhibition of cytopathic effects of Vero cells caused by herpes virus type I; assay type: cell-based; conditions: SI = TC50/IC50
Source text: (§1) Vero cells (kidney cells of African green monkey) are used as viral hosts to test the inhibition degree of the samples to the cytopathic effects of Vero cells caused by herpes virus type I and type II.
(§2) Vero cells (kidney cells of African green monkey) are used as viral hosts to test the inhibition degree of the samples to cytopathic effects of the Vero cell caused by herpes virus type I and type II.
(§3) 1. Virus strains: HSV-I, VR733 strain, and HSV-II, SAV strain, which both are provided by ATCC.
(§4) 2. Sample treatment: the sample is dissolved in DMSO at an appropriate concentration before use, and diluted with the culture medium 3 times at a total of 8 dilutions for test.
(§5) 3. Positive control drug: acyclovir (ACV) produced by the Hubei Ke Yi pharmaceutical factory.

HSV-II, SAV strain = experiment: Inhibition of cytopathic effects of Vero cells caused by herpes virus type II; assay type: cell-based; conditions: SI = TC50/IC50
Source text: as §1, §2, §3, §4, §5

Compound	SI Against HSV-1 (HSV-I, VR733 strain)	SI Against HSV-II (HSV-II, SAV strain)
O=C(c1ccc(O)c(O)c1O)c1ccc(O)c(O)c1O [2,3,4,2′,3′,4′-hexahydroxybenzophenone]	1.26	1.14
O=C(c1ccc(O)cc1O)c1ccc(O)cc1O [2,4,2′,4′-tetrahydroxybenzophenone]	2.22	2.11
O=C(c1ccccc1)c1ccc(O)c(O)c1O [2,3,4-trihydroxybenzophenone]	2.66	1.86
O=C(c1ccccc1O)c1ccccc1O [2,2′-dihydroxybenzophenone]	2.18	2.23
